Pooled drug test results. Numbers come from NIAID ChemDB, via PubChem.

Common to all: cytotoxicity tests; cells: HFF; measure: CC50

Lines come from different laboratories, so protocols vary. CCn: concentration that lowers growth or viability of the cells by n%. Blank or dashed fields: not listed here.

structure	read by	result
CCOc1ccc(-c2c3cc(O)c(=O)cc-3oc3cc(O)c(O)cc23)cc1	MTT	>100 µM
OC[C@H]1O[C@@H](n2c(Br)nc3cc(Cl)c(Cl)cc32)[C@H](O)[C@@H]1O	-	190 µM
Cc1cc(C)c(OC(=O)c2ccc(Cl)cc2)c(=O)c(C)c1	MTT	>100 µM
CC(C)(C)OC(=O)N1CCN(C(=O)c2ccc(Oc3ccc(Cl)cc3O)s2)CC1	-	>10 µM
O[C@@H]1[C@H](O)CO[C@H]1n1c(Cl)nc2cc(Cl)c(Cl)cc21	-	32 µM
N#Cc1c(Cl)n([C@@H]2O[C@H](CO)[C@@H](O)[C@H]2O)c2cc(Cl)c(Cl)cc12	-	32 µM
O=C(Nc1ccc(NC(=S)Nc2ccc(F)c(Cl)c2)cc1)c1ccco1	MTS	≥10 µg/mL
CCCCOc1nc(N)nc2c1ncn2/C=C1/C[C@@H]1CO	neutral red	>300 µM
O=C(Nc1ccc(NC(=S)Nc2cc(C(F)(F)F)cc(C(F)(F)F)c2)cc1)c1csnn1	MTS	≥10 µg/mL
CC(C)[C@H](NC(=O)CN)C(=O)OCC(COC(=O)[C@@H](NC(=O)CN)C(C)C)OCn1cnc2c(=O)[nH]c(N)nc21	-	≥126 µM
[N-]=[N+]=NC(CCl)c1cn([C@H]2C[C@H](O)[C@@H](CO)O2)c(=O)[nH]c1=O	-	>150 µM
CCC(=O)Nc1ccc(NC(=S)Nc2cc(Cl)c(OC)cc2OC)cc1	MTS	≥10 µg/mL
Nc1nc(NC2CC2)c2ncn(/C=C3/C[C@@H]3CO)c2n1	-	>367 µM
CC(C)Nc1nc2cc(Cl)c(Cl)cc2n1[C@@H]1OC[C@@H](O)[C@H]1O	-	>100 µM
CC(C)[C@H](N)C(=O)N[C@H](C(=O)OCC(COC(=O)[C@@H](NC(=O)[C@@H](N)C(C)C)C(C)C)OCn1cnc2c(=O)[nH]c(N)nc21)C(C)C	-	≥113 µM
Nc1nc(NCCO)c2ncn(/C=C3/C[C@@H]3CO)c2n1	-	>362 µM
CCc1cn([C@H]2C[C@H](O)[C@@H](CO)O2)c(=O)[nH]c1=O	-	>170 µM
Cc1ccc(NC(=S)Nc2ccc(NC(=O)c3ccco3)cc2)cc1Cl	MTS	≥10 µg/mL
CC(C)Nc1nc(N)nc2c1ncn2/C=C1/C[C@@H]1CO	-	>365 µM
CC(=O)O[C@H]1[C@H](n2c(Cl)nc3cc(Cl)c(Cl)cc32)OC[C@H]1OC(C)=O	-	41 µM
CC(C)=CCc1ccc(O)c(=O)cc1C(C)C	MTT	>100 µM
Nc1nc2c(Cl)cc(Cl)cc2n1COCCO	visual reading	100 µM
CCCCCOc1nc(N)nc2c1ncn2/C=C1/C[C@@H]1CO	neutral red	>300 µM
O=S(=O)(c1ccc(Oc2ccc(Cl)cc2O)cc1)N1CCCC1	-	>10 µM
O[C@@H]1[C@H](O)[C@H](O)CO[C@H]1n1c(Br)nc2cc(Cl)c(Cl)cc21	neutral red	152 µM
COC(=O)C(C)NP(=O)(OC[C@@H]1C/C1=C/n1cc(N)c(=O)[nH]c1=O)Oc1ccccc1	-	>300 µM
CN(C)c1nc2c(Cl)cc(Cl)cc2n1COC(CO)CO	visual reading	>100 µM
CC(N)c1cn([C@H]2C[C@H](O)[C@@H](CO)O2)c(=O)[nH]c1=O	-	>175 µM
Nc1nc(NCC2CC2)c2ncn(/C=C3/C[C@@H]3CO)c2n1	-	>349 µM
O=C(NCc1ccc(Cl)cc1)c1c[nH]c2ccc(CCCO)cc2c1=O	-	47.7 µM
OCCOCn1c(=S)[nH]c2c(Cl)c(Cl)ccc21	visual reading	>100 µM
COC(=O)C(C)NP(=O)(OC[C@@H]1C/C1=C/n1cc(C)c(=O)[nH]c1=O)Oc1ccccc1	-	>100 µM
CCCOc1nc(N)nc2c1ncn2/C=C1/C[C@@H]1CO	-	>363 µM
O=C(NCc1ccc(Cl)cc1)c1c[nH]c2c(F)cccc2c1=O	-	>50 µM
Nc1nc(OCc2ccccc2)c2ncn(/C=C3/C[C@@H]3CO)c2n1	neutral red	>300 µM
Nc1nc2ncn(/C=C3\C(F)C3(CO)CO)c2c(=O)[nH]1	-	>100 µM
O=Cc1c(Cl)n([C@@H]2O[C@H](CO)[C@@H](O)[C@H]2O)c2cc(Cl)c(Cl)cc12	-	45 µM
Nc1nc2c(ncn2COCCO)c(=O)[nH]1	-	>444 µM
CCN(C)c1ccc(Oc2ccc(O)cc2)cc1	XTT	95 µM
C=C(C)[C@@H]1CCc2c(O)c(O)c(=O)cc(C)c2C1	neutral red	6.7 µM
COC(=O)C(C)NP(=O)(OC[C@@H]1C/C1=C\n1cc(N)c(=O)[nH]c1=O)Oc1ccccc1	-	>300 µM
CNc1c(C=O)c2cc(Cl)c(Cl)cc2n1[C@@H]1O[C@H](CO)[C@@H](O)[C@H]1O	-	3.2 µM
O=C(Nc1ccc(NC(=S)Nc2ccc(C(F)(F)F)c(Cl)c2)cc1)c1cocn1	MTS	≥10 µg/mL
CCCOc1nc(N)nc2c1ncn2/C=C1/C[C@@H]1CO	-	363 µM
CN[C@H]1C[C@@H](n2cnc3c(N)ncnc32)[C@H](O)[C@@H]1O	-	>100 µg/mL
CN1CCN(c2ccc(Oc3ccc(Cl)cc3O)cc2)CC1	-	>10 µM
CN(C)c1c(C=O)c2cc(Cl)c(Cl)cc2n1[C@@H]1O[C@H](CO)[C@@H](O)[C@H]1O	-	32 µM
CC(C)Nc1nc2cc(Cl)c(Cl)cc2n1[C@H]1O[C@@H](CO)[C@H](O)[C@@H]1O	-	>100 µM
C=CCOc1nc(N)nc2c1ncn2/C=C1/C[C@@H]1CO	neutral red	>300 µM
CCCCCOc1nc(N)nc2c1ncn2/C=C1/C[C@@H]1CO	-	178 µM
O=C(Nc1ccc(NC(=S)Nc2cccc(C(F)(F)F)c2)cc1)c1ccco1	MTS	≥10 µg/mL
OCC(CO)OCn1c(=S)[nH]c2c(Cl)cc(Cl)cc21	visual reading	>100 µM
O=c1[nH]c(=O)n([C@H]2C[C@H](O)[C@@]3(CO)CC23)cc1I	-	>200 µM
CNc1nc2cc(Cl)c(Cl)cc2n1COCCO	visual reading	>100 µM
Oc1cc(Cl)ccc1Oc1ccc2ncccc2c1	-	>10 µM
CCOc1nc(N)nc2c1ncn2/C=C1/C[C@@H]1CO	neutral red	>300 µM
Nc1nc(NC2CCCCC2)c2ncn(/C=C3/C[C@@H]3CO)c2n1	-	>318 µM
Cc1cccc(NC(=S)Nc2ccc(NC(=O)c3ccco3)cc2)c1	MTS	≥10 µg/mL
CNc1nc2cc(Cl)c(Cl)cc2n1COC(CO)CO	visual reading	>100 µM
CCCCNc1c(C=O)c2cc(Cl)c(Cl)cc2n1[C@@H]1O[C@H](CO)[C@@H](O)[C@H]1O	-	10 µM

Repeating the final 6 entries:

structure | read by | result
Oc1cc(Cl)ccc1Oc1ccc2ncccc2c1 | - | >10 µM
CCOc1nc(N)nc2c1ncn2/C=C1/C[C@@H]1CO | neutral red | >300 µM
Nc1nc(NC2CCCCC2)c2ncn(/C=C3/C[C@@H]3CO)c2n1 | - | >318 µM
Cc1cccc(NC(=S)Nc2ccc(NC(=O)c3ccco3)cc2)c1 | MTS | ≥10 µg/mL
CNc1nc2cc(Cl)c(Cl)cc2n1COC(CO)CO | visual reading | >100 µM
CCCCNc1c(C=O)c2cc(Cl)c(Cl)cc2n1[C@@H]1O[C@H](CO)[C@@H](O)[C@H]1O | - | 10 µM